Test results published in patent US20070072830A1, “Methods for treating diabetes” (Point Therapeutics, Inc., priority 2004, published 2007).

Tested on: human bone marrow stromal cells
Test: G-CSF supernatant levels in human bone marrow stromal cell cultures
Format: cell-based
Details: 1 to 10^4 nM, 24 hours in vitro
Protocol: Human bone marrow stromal cell cultures. Samples of normal human bone marrow were purchased from Cambrex Bioproducts (Walkersville, Md.) and mononuclear cells were purified over Ficoll-Hypaque (Nycomed, Oslo, Norway). Human stromal layers were established by seeding 4×10^7 mononuclear cells into T75 flasks (Coming) containing 20 ml MyeloCult medium (Stem Cell Technologies, Vancouver, BC) supplemented with 10^−6 M hydrocortisone (Sigma) and incubation at 37° C. in 100% humidified 5% CO2 in air. After one week, half the medium was exchanged, and the cultures incubated for approximately one week more, after which time, a semi-confluent cell layer was formed. Stromal cells were harvested by trypsinization using standard technique and 10^5 cells/well were seeded in multi-well plates in 1 ml of fully supplemented DMEM (InVitrogen, Carlsbad, Calif.). […] Multiwell cultures without the addition of amino boronic dipeptides served as controls. […] Supernatant concentrations of human G-CSF were determined by Quantikine enzyme-linked immunosorbent assay (ELISA; R&D Systems, Minneapolis, Minn.) according to the manufacturer's instructions. […] The effect of each amino boronic dipeptide on the level of supernatant G-CSF was determined by calculating a stimulation index (SI): SI=(mean G-CSF concentration in culture with amino boronic dipeptide)/(mean G-CSF concentration in control culture).

With `N[C@@H](CCC(=O)O)C(=O)N1CCC[C@H]1B(O)O` [Glu-boroPro] the “Stimulation of G-CSF levels in culture supernatants (stimulation index)” value was “did not appear to stimulate increased levels of G-CSF”.
